{"source": "PubChem BioAssay AID504761 (Drosophila RNAi Screening Center, 2011)", "aim": "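Fly genes whose silencing reduces dengue virus type 2 infection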 (primary screen)", "cells": "D.Mel-2 cells from Drosophila", "reagent": "long dsRNA against Drosophila genes", "conditions": "infection with dengue virus type 2; dose and infection time not stated", "detection": "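Cells stained for dengue envelope protein and imaged; percent of infected cells per well on duplicate plates, ranked by infection, with stained nuclei counted for cell number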", "reading the numbers": "infection score: higher = more virus-infected cells; cell count: higher = more cells in the well", "call rule": "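Very low infection ranking in both replicate wells (chance probability at most 0.065), then a retest showing infection dropped 1.5-fold or more at p below 0.05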", "meaning of the calls": "active = confirmed: knock-down lowers infection; inactive = not picked or not confirmed", "note": "In all, the deposit lists about 22,000 reagents; this is an unselected part of those with a known target gene and a result. Of all reagents, 116 (0.52%) got an active call. 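Calls depend on retest data that are not deposited; infection was ranked per plate without normalising between plates; the unit of the infection score is not given.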 The raw values are shown without normalisation. Reagent sequences are not shown. Not given: the amount of reagent, the time to read-out."}
{"predicted target":"ect (ectodermal)","amplicon":"DRSC10675","infection score, replicate 1":25.7,"infection score, replicate 2":20.4,"cell count, replicate 1":6327,"cell count, replicate 2":6223,"call":"inactive"}
{"predicted target":"ect (ectodermal)","amplicon":"DRSC11343","infection score, replicate 1":1.93,"infection score, replicate 2":1.95,"cell count, replicate 1":5705,"cell count, replicate 2":5331,"call":"inactive"}
{"predicted target":"ect (ectodermal)","amplicon":"DRSC22357","infection score, replicate 1":3.93,"infection score, replicate 2":4.09,"cell count, replicate 1":6469,"cell count, replicate 2":7069,"call":"inactive"}
{"predicted target":"ect (ectodermal)","amplicon":"DRSC27880","infection score, replicate 1":16.2,"infection score, replicate 2":6.62,"cell count, replicate 1":6608,"cell count, replicate 2":6659,"call":"inactive"}
{"predicted target":"NFAT (NFAT nuclear factor)","amplicon":"DRSC18991","infection score, replicate 1":3.91,"infection score, replicate 2":5.6,"cell count, replicate 1":6270,"cell count, replicate 2":5554,"call":"inactive"}
{"predicted target":"NFAT (NFAT nuclear factor)","amplicon":"DRSC19393","infection score, replicate 2":33.3,"cell count, replicate 1":354,"cell count, replicate 2":5135,"call":"inactive"}
{"predicted target":"NFAT (NFAT nuclear factor)","amplicon":"DRSC24828","infection score, replicate 1":0.74,"infection score, replicate 2":2.39,"cell count, replicate 1":5961,"cell count, replicate 2":5930,"call":"inactive"}
{"predicted target":"NFAT (NFAT nuclear factor)","amplicon":"DRSC29663","infection score, replicate 1":20.2,"infection score, replicate 2":26.1,"cell count, replicate 1":2892,"cell count, replicate 2":4127,"call":"inactive"}
{"predicted target":"CG14562","amplicon":"DRSC11723","infection score, replicate 1":11.3,"infection score, replicate 2":12.3,"cell count, replicate 1":6656,"cell count, replicate 2":6648,"call":"inactive"}
{"predicted target":"Gr61a (Gustatory receptor 61a)","amplicon":"DRSC08358","infection score, replicate 1":4.3,"infection score, replicate 2":3.12,"cell count, replicate 1":5925,"cell count, replicate 2":5929,"call":"inactive"}
{"predicted target":"CG32762","amplicon":"DRSC18298","infection score, replicate 1":22,"infection score, replicate 2":17.6,"cell count, replicate 1":5767,"cell count, replicate 2":3151,"call":"inactive"}
{"predicted target":"CG32762","amplicon":"DRSC24339","infection score, replicate 1":1.21,"infection score, replicate 2":5.53,"cell count, replicate 1":5880,"cell count, replicate 2":5586,"call":"inactive"}

2 entries from above in another layout:
predicted target | amplicon | infection score, replicate 1 | infection score, replicate 2 | cell count, replicate 1 | cell count, replicate 2 | call
NFAT (NFAT nuclear factor) | DRSC29663 | 20.2 | 26.1 | 2892 | 4127 | inactive
CG14562 | DRSC11723 | 11.3 | 12.3 | 6656 | 6648 | inactive
